Measured values from several laboratories, pooled; numbers as filed in NIAID ChemDB.

All rows: whole-cell or culture tests; organism: HIV-1; cell line: MT-4; endpoint: EC50

ECn is the concentration giving n% inhibition of infection, replication or growth. Conditions beyond the fields shown may differ between rows. Blank or dashed fields: not listed here.

Nn1cc(C(=O)O)c(=O)c2ccc(N3CCN(c4ccccn4)CC3)nc21 ; strain or isolate: IIIB ; method: MTT ; result: 12.01 µM
COc1ccc(/C=N/n2sc3ccc(C)cc3c2=O)cc1 ; changes: EFV-resistant (K103 V179D P225H) ; method: MTT ; result: >55 µM
CCOCn1c(Cc2ccccc2)c(C(C)C)c(=O)[nH]c1=O ; strain or isolate: IIIB ; changes: Y181C ; method: MTT ; result: 20 µM
COC(=O)N[C@H](C(=O)N[C@@H](Cc1ccccc1)C[C@H](O)[C@H](Cc1ccc(-c2ccc(CO)nc2)cc1)NC[C@@H](NC(=O)OC)C(C)(C)C)C(C)(C)C ; strain or isolate: pNL4-3 ; method: MTT ; setting: 50% human serum ; result: 45 nM
CCCCO[C@]12CS(=O)(=O)O[C@@]13[C@@H](CN2)O[C@@H](n1cc(C)c(=O)[nH]c1=O)[C@@H]3O ; strain or isolate: IIIB ; result: >125 µM
CC(=O)OCC1=C[C@@H]2C(=O)[C@]3(C=C(C)[C@H](OC(C)=O)[C@@]3(O)[C@@H]1OC(C)=O)[C@H](C)C[C@@H]1[C@H]2C1(C)C ; strain or isolate: A012B ; method: cytopathic effect / MTT ; result: 0.073 µM
COc1c(Cl)cc(C(=CCC(=O)N[C@@H]2CC[C@@]3(C)[C@@H](CC[C@@H]4[C@@H]3CC[C@]3(C)[C@@H]([C@H](C)CCCC(C)C)CC[C@@H]43)C2)c2cc(Cl)c(OC)c(C(=O)O)c2)cc1C(=O)O ; strain or isolate: IIIB ; method: cytopathic effect / MTT ; result: >6 µM
O=[N+]([O-])c1ccc2c(c1)[n+]([O-])nc1c([N+](=O)[O-])cnn12 ; strain or isolate: IIIB ; method: cytopathic effect / MTT ; result: >1.4 µM
COc1cc(/C=N/n2sc3ccc(C)cc3c2=O)ccc1O ; method: MTT ; result: >16 µM
CCS[C@]12CS(=O)(=O)O[C@@]13[C@@H](CN2)O[C@@H](n1cc(C)c(=O)[nH]c1=O)[C@@H]3O[Si](C)(C)C(C)(C)C ; strain or isolate: IIIB ; result: 31.1 µM
Cc1cc(C)cc(S(=O)(=O)c2c(C(=O)NS(=O)(=O)c3ccc(F)cc3)[nH]c3ccc(Cl)cc23)c1 ; changes: Y188L ; method: MTT ; result: >121 µM
CO[C@]12CS(=O)(=O)O[C@@]13[C@@H](CN2)O[C@@H](n1cc(C)c(=O)[nH]c1=O)[C@@H]3O ; strain or isolate: IIIB ; result: 98.9 µM
O=c1c2ccccc2sn1/N=C/c1ccccc1 ; method: MTT ; result: 11 µM
CNC(=O)c1ccc(-c2ccc(C[C@H](NC[C@@H](NC(=O)OC)C(C)(C)C)[C@@H](O)C[C@H](Cc3ccccc3)NC(=O)[C@@H](NC(=O)OC)C(C)(C)C)cc2)cc1 ; strain or isolate: pNL4-3 ; method: MTT ; setting: 50% human serum ; result: 56 nM
C=Cn1cc(C(=O)O)c(=O)c2ccc(N3CCN(c4ccccn4)CC3)nc21 ; strain or isolate: IIIB ; method: MTT ; result: 0.16 µM
COC(=O)N[C@H](C(=O)N[C@@H](Cc1ccccc1)C[C@H](O)[C@H](Cc1ccc(-c2cncc(F)c2)cc1)NC[C@@H](NC(=O)OC)C(C)(C)C)C(C)(C)C ; strain or isolate: pNL4-3 ; method: MTT ; result: 4 nM
CC(C)[C@H](NC(=O)OCc1ccccn1)C(=O)N[C@@H](Cc1ccccc1)[C@@H](O)C[C@H](Cc1ccccc1)NC(=O)OCc1cccnc1 ; strain or isolate: NL4-3 ; changes: PR-L10R ; method: p24 ; result: <0.8 µM
Cc1cn([C@@H]2O[C@@H]3CN[C@@]4(OCC(C)(C)C)CS(=O)(=O)O[C@@]34[C@H]2O[Si](C)(C)C(C)(C)C)c(=O)[nH]c1=O ; strain or isolate: IIIB ; result: <10 µM
COC(=O)N[C@H](C(=O)N[C@@H](Cc1ccccc1)C[C@H](O)[C@H](Cc1ccc(-c2ccc(F)nc2)cc1)NC[C@@H](NC(=O)OC)C(C)(C)C)C(C)(C)C ; strain or isolate: pNL4-3 ; method: MTT ; setting: 50% human serum ; result: 14 nM
[O-][n+]1nc2c(-c3ccc(F)cc3)cnn2c2ccccc21 ; strain or isolate: IIIB ; method: cytopathic effect / MTT ; result: >200 µM
Cc1cn([C@@H]2O[C@@H]3CN[C@@]4(O)CS(=O)(=O)O[C@@]34[C@H]2O[Si](C)(C)C(C)(C)C)c(=O)[nH]c1=O ; strain or isolate: IIIB ; result: >250 µM
CCOCn1c(C(=O)c2cccc(C#N)c2)c(CC)c(=O)[nH]c1=O ; strain or isolate: IIIB ; changes: Y181C ; method: MTT ; result: 8 µM
COC(=O)N[C@H](C(=O)N[C@@H](Cc1ccccc1)C[C@H](O)[C@H](Cc1ccc(-c2ccc(N)cc2)cc1)NC[C@@H](NC(=O)OC)C(C)(C)C)C(C)(C)C ; strain or isolate: pNL4-3 ; method: MTT ; setting: 50% human serum ; result: 38 nM
Cc1cn(C/C=C\COCP(=O)(O)O)c(=O)[nH]c1=O ; result: >100 µM
COc1c(Cl)cc(C(=CCN[C@H]2CC[C@@]3(C)[C@@H](CC[C@@H]4[C@@H]3CC[C@]3(C)[C@@H]([C@H](C)CCCC(C)C)CC[C@@H]43)C2)c2cc(Cl)c(OC)c(C(=O)O)c2)cc1C(=O)O ; strain or isolate: IIIB ; method: cytopathic effect / MTT ; result: >125 µM
CCc1c(C(=O)c2cccc(C#N)c2)n(Cc2cccc(C#N)c2)c(=O)[nH]c1=O ; strain or isolate: IIIB ; changes: EFV ; method: MTT ; result: >100 µM
CC(C)=CCC[C@]1(C)C=Cc2c(ccc3c2C(=O)C(=O)C=C3O)O1 ; strain or isolate: RF ; method: cytopathic effect / XTT ; result: >50 µM
Cc1cn([C@@H]2O[C@@H]3CN[C@@]4(C#N)CS(=O)(=O)O[C@@]34[C@H]2O[Si](C)(C)C(C)(C)C)c(=O)[nH]c1=O ; strain or isolate: IIIB ; result: >50 µM
C=Cn1cc(C(=O)O)c(=O)c2ccc(N3CCN(c4cccc(C(F)(F)F)c4)CC3)nc21 ; strain or isolate: IIIB ; method: MTT ; result: 0.6 µM
Clc1ccc2nnc3c(Br)cnn3c2c1 ; strain or isolate: IIIB ; method: cytopathic effect / MTT ; result: >200 µM
C=Cn1cc(C(=O)O)c(=O)c2ccc(N3CCN(c4nc5ccccc5s4)CC3)nc21 ; strain or isolate: IIIB ; method: MTT ; result: 0.02 µM
C=CCO[C@]12CS(=O)(=O)O[C@@]13[C@@H](CN2)O[C@@H](n1cc(C)c(=O)[nH]c1=O)[C@@H]3O[Si](C)(C)C(C)(C)C ; strain or isolate: IIIB ; result: >10 µM
Nc1ncnc2c1ncn2C/C=C\CO ; result: >100 µM
Cc1cc(C)cc(S(=O)(=O)c2c(C(=O)NS(=O)(=O)c3ccccc3)[nH]c3ccc(Cl)cc23)c1 ; strain or isolate: RES056 ; method: MTT ; result: >131 µM
Brc1cnn2c1nnc1ccccc12 ; strain or isolate: IIIB ; method: cytopathic effect / MTT ; result: >200 µM
Cc1cc(C)cc(S(=O)(=O)c2c(C(=O)NS(=O)(=O)C(F)(F)F)[nH]c3ccc(Cl)cc23)c1 ; changes: F227L + V106A ; method: MTT ; result: 38.65 µM
Cn1cc(C(=O)O)c(=O)c2cnc(N3CCN(c4nc5ccccc5s4)CC3)cc21 ; strain or isolate: IIIB ; method: MTT ; result: >0.08 µM
CCO[C@]12CS(=O)(=O)O[C@@]13C(CN2)O[C@@H](n1cc(C)c(=O)[nH]c1=O)[C@@H]3O[Si](C)(C)C(C)(C)C ; strain or isolate: IIIB ; result: 13.8 µM
CC(C)CCC[C@@H](C)[C@H]1CC[C@H]2[C@@H]3CC[C@H]4C[C@@H](NC(=O)C=C(c5cc(Cl)c(O)c(C(=O)O)c5)c5cc(Cl)c(O)c(C(=O)O)c5)CC[C@]4(C)[C@H]3CC[C@]12C ; strain or isolate: IIIB ; method: cytopathic effect / MTT ; result: 15.1 µM
Cc1nc2ccccc2c(-c2ccc(Cl)cc2)c1[C@H](OC(C)(C)C)C(=O)O ; result: 0.055 µM
Cc1cc(C)cc(S(=O)(=O)c2c(C(=O)NCCP(=O)(O)O)[nH]c3ccc(Cl)cc23)c1 ; strain or isolate: RES056 ; method: MTT ; result: >265 µM
CCO[C@]12CS(=O)(=O)O[C@@]13[C@@H](CN2)O[C@@H](n1cc(C)c(=O)[nH]c1=O)[C@@H]3OC(C)=O ; strain or isolate: IIIB ; result: >250 µM
Cn1cc(C(=O)O)c(=O)c2sc(N3CCN(c4nc5ccccc5s4)CC3)nc21 ; strain or isolate: IIIB ; method: MTT ; result: >2.05 µM
COC(=O)N[C@H](C(=O)N[C@@H](Cc1ccccc1)C[C@H](O)[C@H](Cc1ccc(-c2ccnc(F)c2)cc1)NC[C@@H](NC(=O)OC)C(C)(C)C)C(C)(C)C ; strain or isolate: pNL4-3 ; method: MTT ; result: 2 nM
c1ccc2c(c1)nnc1ccnn12 ; strain or isolate: IIIB ; method: cytopathic effect / MTT ; result: >200 µM
Cc1ccc2sn(/N=C/c3ccccc3O)c(=O)c2c1 ; changes: K103N + Y181C ; method: MTT ; result: >30 µM
Cn1cc(C(=O)O)c(=O)c2cc(N)c(N3CCN(c4nc5ccccc5s4)CC3)nc21 ; strain or isolate: IIIB ; method: MTT ; result: >0.029 µM
COC(=O)N[C@H](C(=O)N[C@@H](Cc1ccccc1)C[C@H](O)[C@H](Cc1ccc(-c2ccncc2)cc1)NC[C@@H](NC(=O)OC)C(C)(C)C)C(C)(C)C ; method: MTT ; setting: 50% human serum ; result: 34 nM
Clc1cc(CN2CCCNCCNCCCNCC2)cc(Cl)n1 ; strain or isolate: NL4-3 CXCL12-resistant X4 ; method: p24 ; result: 6.1 µM
Nc1nc2c(ncn2C/C=C\CO)c(=O)[nH]1 ; result: >100 µM
O=c1c2ccccc2sn1/N=C/c1ccc(O)c(O)c1 ; changes: Y181C ; method: MTT ; result: >44 µM
CCCS(=O)(=O)NC(=O)c1[nH]c2ccc(Cl)cc2c1S(=O)(=O)c1cc(C)cc(C)c1 ; changes: F227L + V106A ; method: MTT ; result: 3.53 µM
O=C(NCc1ccc(F)cc1)c1ncc2cccnc2c1O ; method: p24 ; setting: 50% human serum ; result: <6 µM

7 of the rows above, restated:

smiles	strain or isolate	changes	method	setting	result
c1ccc2c(c1)nnc1ccnn12	IIIB		cytopathic effect / MTT		>200 µM
CCO[C@]12CS(=O)(=O)O[C@@]13[C@@H](CN2)O[C@@H](n1cc(C)c(=O)[nH]c1=O)[C@@H]3OC(C)=O	IIIB				>250 µM
COC(=O)N[C@H](C(=O)N[C@@H](Cc1ccccc1)C[C@H](O)[C@H](Cc1ccc(-c2ccc(F)nc2)cc1)NC[C@@H](NC(=O)OC)C(C)(C)C)C(C)(C)C	pNL4-3		MTT	50% human serum	14 nM
Brc1cnn2c1nnc1ccccc12	IIIB		cytopathic effect / MTT		>200 µM
CCOCn1c(Cc2ccccc2)c(C(C)C)c(=O)[nH]c1=O	IIIB	Y181C	MTT		20 µM
CCCCO[C@]12CS(=O)(=O)O[C@@]13[C@@H](CN2)O[C@@H](n1cc(C)c(=O)[nH]c1=O)[C@@H]3O	IIIB				>125 µM
CCOCn1c(C(=O)c2cccc(C#N)c2)c(CC)c(=O)[nH]c1=O	IIIB	Y181C	MTT		8 µM